Construct, isoform or probe ends are uncertain for at least one entry. At least one verdict was read from the data and is not stated in words by the source. Protein sequences can lack the tags named with them.
Assays:
[1] = molecular target: T1, PhoB (Pseudomonas aeruginosa PAO1) (UniProt P23620); assay: EMSA; details: positive control; LightShift chemiluminescent EMSA kit; 50 ng/ul poly(dIdC), 10 nM biotin-labeled DNA, 20 min at room temperature; 5% native TBE PAGE; proteins stored in 50 mM NaH2PO4; recombinant protein; protein details: C-terminal His (pET-28b, NcoI-XhoI); label: biotin 3'-end
T1 sequence (looked up, limits assumed): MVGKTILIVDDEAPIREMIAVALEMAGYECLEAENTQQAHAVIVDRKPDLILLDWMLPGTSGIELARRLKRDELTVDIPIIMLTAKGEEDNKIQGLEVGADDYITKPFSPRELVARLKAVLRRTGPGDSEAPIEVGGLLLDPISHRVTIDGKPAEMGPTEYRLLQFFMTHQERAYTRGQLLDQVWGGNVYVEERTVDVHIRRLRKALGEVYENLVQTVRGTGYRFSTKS

[2] = molecular target: T2, LasR (Pseudomonas aeruginosa PAO1) (UniProt P25084); assay: EMSA; details: 2 uM 3-oxo-C12-HSL, without PhoB; recombinant protein; protein details: C-terminal His (pET-28b); label: biotin 3'-end
T2 sequence (looked up, limits assumed): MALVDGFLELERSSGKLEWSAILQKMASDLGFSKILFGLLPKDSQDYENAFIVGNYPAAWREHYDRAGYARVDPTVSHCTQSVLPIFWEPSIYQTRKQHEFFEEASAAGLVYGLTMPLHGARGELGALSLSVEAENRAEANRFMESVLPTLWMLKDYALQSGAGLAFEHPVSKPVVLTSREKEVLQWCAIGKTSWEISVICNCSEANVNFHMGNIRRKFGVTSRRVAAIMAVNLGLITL

Row | Sequence | binding result [1] | binding result [2]
1 | TATCCCAAAACCCCTGGTCAGCGATGACCGGGGGTTTTGCTTTTGCGCGCGGAAAAAGGCGTGCTTCCTCGCTTCTTTTCTCGACTGCGAATGCCGGCGGCGACTGTCACAATTGCCCTGGAAACTACCCATCCTGCATGAAACGGATGGACGGCTACCTCCCCCAGGCGGATCGAAAACGCGCTCCAGAGGGCCTCCCGGGCCCCTCCGTGAAAGGCTGGAGCCCTTGTGTTTCCAGGCTTTTAGGGGTGTGGCAGGGCTTCTCCCAAGGCTTGCGGAAAAATGTCGGAAGGCTGATGGCATTTCATCCAACTGTCATATTCCTTTCATAGAGTCTTCATGCGGCCTGACGATACTGGCCCCCGTTCCATCCAACCCCATCCTGTCCAAGGAGCAAGGC (double strand) [pstS promoter] | binds | 
2 | TGCTCTGATCTTTTCGGACGTTTCTTCGAGCCTAGCAAGGGTCCGGGTTCACCGAAATCTATCTCATTTGCTAGTTATAAAATTATGAAATTTGCATAAATTCTTCAGCTTCCTATTTGGAGGAAGTGAAG (double strand) [lasI promoter] |  | binds
